This experiment deals with bone marrow-derived macrophages. The experiment can be described thus: Bone marrow-derived macrophage (BMDM) differentiation culture. The format is cell-based, C57BL/c mice. The conditions noted are these: BMDM in vitro, day 2 and 6 of differentiation.

In the case of “rHSA-CORM: artificial albumin metalloprotein: recombinant human serum albumin (Recombumin) metalated with CORM-3, carrying Ru(CO)2 groups”, the “apoptosis (Annexin V and Viability dye)” value is given as “reduction in apoptosis”.
